{
  "sequences": {"note": "Chains of the proteins cited; added tags and fusions are not shown. Residues count along the entry.", "UniProt Q6XEC0, 23-265 limits assumed": "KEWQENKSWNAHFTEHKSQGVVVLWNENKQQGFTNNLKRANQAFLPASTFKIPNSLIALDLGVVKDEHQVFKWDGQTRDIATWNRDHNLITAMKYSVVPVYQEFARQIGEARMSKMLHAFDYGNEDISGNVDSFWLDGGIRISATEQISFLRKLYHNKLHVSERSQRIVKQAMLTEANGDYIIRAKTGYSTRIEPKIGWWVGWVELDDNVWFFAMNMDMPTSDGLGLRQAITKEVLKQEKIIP", "UniProt Q8RLA6, 21-275 limits assumed": "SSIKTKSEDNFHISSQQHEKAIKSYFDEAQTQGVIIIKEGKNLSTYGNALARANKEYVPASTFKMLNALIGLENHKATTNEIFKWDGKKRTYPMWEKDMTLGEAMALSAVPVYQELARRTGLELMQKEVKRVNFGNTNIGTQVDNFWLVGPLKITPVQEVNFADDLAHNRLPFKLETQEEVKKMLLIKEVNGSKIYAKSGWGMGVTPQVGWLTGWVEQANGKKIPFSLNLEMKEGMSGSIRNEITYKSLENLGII", "UniProt Q2TR58, 19-280 limits assumed": "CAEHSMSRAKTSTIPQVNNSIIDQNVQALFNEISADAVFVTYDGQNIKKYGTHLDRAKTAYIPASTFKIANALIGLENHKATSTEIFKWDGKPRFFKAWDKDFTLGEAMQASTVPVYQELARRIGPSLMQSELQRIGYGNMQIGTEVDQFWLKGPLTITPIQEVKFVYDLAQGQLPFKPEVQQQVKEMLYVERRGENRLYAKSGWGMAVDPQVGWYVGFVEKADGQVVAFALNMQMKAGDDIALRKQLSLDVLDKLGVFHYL"},
  "source": "patent US12286418B2",
  "about": "“Compounds and methods for treating or preventing bacterial infections” (priority 2019, dated 2025)",
  "key": {"OXA-48 [1]": {"target": "T1, OXA-48 (Klebsiella pneumoniae, UniProt Q6XEC0)", "assay": "OXA-48 inhibition assay using nitrocefin as reporter", "format": "biochemical", "conditions": "for Ki: read-out: Ki for OXA-48 inhibition, purified OXA-48, nitrocefin hydrolysis, Morrison fit"}, "OXA-48 [2]": {"target": "T1, OXA-48", "assay": "Example 8 inhibition assay with nitrocefin (aromatic acids): OXA-48", "format": "biochemical", "conditions": "for Ki: OXA-48 0.2 nM, 25 μM nitrocefin"}, "OXA-24": {"target": "OXA-24 (Acinetobacter baumannii, UniProt Q8RLA6)", "assay": "Example 8 inhibition assay with nitrocefin (aromatic acids): OXA-24", "format": "biochemical", "conditions": "for fold decrease in activity against OXA-24 versus Compounds 2.1 and 2.2: relative to Compounds 2.1 and 2.2; for Ki: OXA-24 0.2 nM, 25 μM nitrocefin"}, "OXA-58": {"target": "OXA-58 (Acinetobacter baumannii, UniProt Q2TR58)", "conditions": "OXA-58 0.1 nM, 25 μM nitrocefin"}},
  "data": [
    {"smiles": "CCOc1ccccc1N1CCN(c2nccc(N3CCC(C(=O)O)CC3)n2)CC1", "values": [
      {"measurement": "Ki", "setting": "OXA-48 [1]", "result": 590, "unit": "nM"}
    ]},
    {"smiles": "O=S(=O)(O)c1ccc(-c2ccc(S(=O)(=O)O)cc2)cc1", "values": [
      {"measurement": "Ki", "setting": "OXA-48 [2]", "result": 6, "unit": "µM"}
    ]},
    {"smiles": "O=C(O)c1ccc(-c2ccc(C(=O)O)cn2)nc1", "values": [
      {"measurement": "Ki", "setting": "OXA-48 [2]", "result": 21, "unit": "µM"},
      {"measurement": "fold decrease in activity against OXA-24 versus Compounds 2.1 and 2.2", "setting": "OXA-24", "result": 5, "unit": "fold"}
    ]},
    {"smiles": "CCOc1ccccc1N1CCN(c2ccnc(N3CCC(C(=O)O)CC3)n2)CC1", "values": [
      {"measurement": "Ki", "setting": "OXA-48 [1]", "result": 760, "unit": "nM"}
    ]},
    {"smiles": "CCOc1ccccc1N1CCN(c2ncnc(N3CCC(NC(=O)[C@@H](N)CCCCN)(C(=O)O)CC3)n2)CC1", "values": [
      {"measurement": "fold reduction in potency (OXA-48 Ki) compared to CDD-97", "setting": "OXA-48 [1]; relative to CDD-97", "result": 20, "unit": "fold"}
    ]},
    {"smiles": "O=C(O)c1cccc2c1Cc1ccccc1-2", "values": [
      {"measurement": "inhibition activity against OXA-48 in words", "setting": "OXA-48 [2]", "result": "below millimolar"},
      {"measurement": "Ki", "setting": "OXA-58", "result": 313, "unit": "µM"}
    ]},
    {"smiles": "CCOc1ccccc1N1CCN(c2cc(N3CCC(C(=O)O)CC3)ncn2)CC1", "values": [
      {"measurement": "Ki", "setting": "OXA-48 [1]", "result": 4100, "unit": "nM"}
    ]},
    {"smiles": "Nc1ccc(N=Nc2ccc(S(=O)(=O)O)cc2)cc1S(=O)(=O)O", "values": [
      {"measurement": "Ki", "setting": "OXA-48 [2]", "result": 11, "unit": "µM"},
      {"measurement": "Ki", "setting": "OXA-24", "result": 9.22, "unit": "µM"},
      {"measurement": "Ki", "setting": "OXA-58", "result": 2.6, "unit": "µM"}
    ]},
    {"smiles": "OB(O)c1ccc2c(c1)Cc1ccccc1-2", "values": [
      {"measurement": "inhibition activity against OXA-48 in words", "setting": "OXA-48 [2]", "result": "below millimolar"},
      {"measurement": "Ki", "setting": "OXA-58", "result": 172, "unit": "µM"}
    ]},
    {"smiles": "O=S(=O)(O)c1ccc2c(c1)Cc1cc(S(=O)(=O)O)ccc1-2", "values": [
      {"measurement": "Ki", "setting": "OXA-48 [2]", "result": 2.44, "unit": "µM"},
      {"measurement": "Ki", "setting": "OXA-24", "result": 69, "unit": "µM"},
      {"measurement": "Ki", "setting": "OXA-58", "result": 5.6, "unit": "µM"}
    ]},
    {"smiles": "O=C(O)c1ccc(-c2cccc(C(=O)O)c2)cc1", "values": [
      {"measurement": "ligand efficiency (LE) for OXA-48 inhibition", "setting": "OXA-48 [2]; LE=1.37 (pKi)/(# non-Hydrogen atoms)", "result": 0.41},
      {"measurement": "Ki", "setting": "OXA-48 [2]", "result": 4, "unit": "µM"},
      {"measurement": "fold more potent than Compound 2.1 for OXA-48 inhibition", "setting": "OXA-48 [2]; relative to Compound 2.1", "result": "about 4 fold"},
      {"measurement": "fold decrease in activity against OXA-24 versus Compounds 2.1 and 2.2", "setting": "OXA-24", "result": 10, "unit": "fold"}
    ]}
  ]
}
